Compound potency records, mixed from different reports. Data source: NIAID ChemDB in PubChem.

Shared fields: tests in culture

Conditions beyond the fields shown may differ between rows.

SMILES,organism,strain,cell line,method,read-out,tested at,value
C[C@@H]1CCC[C@@H]2C[C@@H](NC(=O)c3ccc(N)cc3O)CCN21,Influenza A virus,H1N1 A/WSN/33,MDBK,plaque count,EC50,-,>20 µg/mL
NC12CC3CC(CC(C3)C1)C2,Influenza B virus,B/HK/5/72,MDCK cell,cytopathic effect,EC50,-,>500 µM
NC12CC3CC(CC(C3)C1)C2,Influenza A virus,-,MDCK,plaque count,EC90,-,1 µg/mL
NC(=O)c1nn([C@@H]2O[C@H](CO)[C@@H](O)[C@H]2O)cc1F,Influenza B virus,Victoria,-,plaque count,EC50,-,0.2 µg/mL
CC(N)C12CC3CC(CC(C3)C1)C2,Influenza A virus,H1N1 A/TEXAS/36/91,MDCK,neutral red,EC50,-,0.15 µM
NC(=O)c1ncn([C@@H]2O[C@H](CO)[C@@H](O)[C@H]2O)n1,Influenza B virus,B/HK/5/72,MDCK cells,cytopathic effect,EC50,-,9 µM
CC(C)CCCC(C)C1CCC2C3CC=C4CC(OC(=O)Nc5cc(S(=O)(=O)O)cc6cc(S(=O)(=O)O)cc(O)c56)CC[C@]4(C)C3CC[C@]12C,Influenza B virus,Singapore/222/79,MDCK,cytopathic effect,EC50,-,>200 µM
CC(N)C12CC3CC(CC(C3)C1)C2,Influenza B virus,B/HK/5/72,MDCK cells,cytopathic effect,EC50,-,>500 µM
CC(N)C12CC3CC(CC(C3)C1)C2,Influenza A virus,-,MDCK,plaque count,EC90,-,0.06 µg/mL
Nc1ccc(S(=O)(=O)O)c2cccc(S(=O)(=O)O)c12,Influenza B virus,Singapore/222/79,MDCK,cytopathic effect,EC50,-,>200 µM
N=C(N)c1ncn([C@@H]2O[C@H](CO)[C@@H](O)[C@H]2O)n1,Influenza A virus,Influenza A/Victoria/3/75 (H3N2),MDCK,virus yield,inhibition,10 µg/mL,90%
C[C@@H]1CCC[C@@H]2C[C@@H](NC(=O)c3cc(I)ccc3O)CCN21,Influenza A virus,H1N1 A/WSN/33,MDBK,plaque count,EC50,-,1 µg/mL
CC(N)C12CC3CC(CC(C3)C1)C2,Influenza A virus,H1N1 A/FM/1/47,MDCK,plaque count,EC50,-,0.62 µM
Nc1ccc(S(=O)(=O)O)c2cc(S(=O)(=O)O)cc(O)c12,Influenza B virus,Singapore/222/79,MDCK,cytopathic effect,EC50,-,>200 µM
NC1CCCCCCC1,Influenza B virus,B/University of Maryland/1/71,-,-,MIC,-,>25 µg/mL
CC(=O)N[C@H]1[C@H]([C@H](O)[C@H](O)CO)OC(C(=O)O)=C[C@@H]1N=C(N)N,Influenza A virus,H3N2 A/AICHI/2/68,MDCK,-,EC50,-,0.014 µM
Nc1ccn([C@@H]2C[C@H](CO)[C@@H](O)[C@H]2O)c(=O)n1,Influenza C virus,-,MDCK,cytopathic effect,EC50,-,4.5 µg/mL
CC(C)CCCC(C)C1CCC2C3CC=C4CC(OC(=O)Cl)CCC4(C)C3CCC12C,Influenza B virus,Singapore/222/79,MDCK,cytopathic effect,EC50,-,>200 µM
C[C@@H]1CCC[C@@H]2C[C@@H](NC(=O)c3c(O)cccc3F)CCN21,Influenza A virus,H1N1 A/WSN/33,MDBK,plaque count,EC50,-,10 µg/mL
NC(=O)c1ncn([C@@H]2O[C@H](CO)[C@@H](O)[C@H]2O)n1,Influenza A virus,A/Maryland/104/68,-,-,MIC,-,0.1 µg/mL
NC(=O)c1nc(F)c[nH]c1=O,Influenza B virus,Nagasaki/1/87,MDCK,plaque count,EC50,-,0.089 µg/mL
C[C@@H]1CCC[C@@H]2C[C@@H](NC(=O)c3c(O)ccc4ccccc34)CCN21,Influenza A virus,H1N1 A/WSN/33,MDBK,plaque count,EC50,-,>20 µg/mL

A second listing of 3 rows from above:

SMILES,organism,strain,cell line,method,read-out,tested at,value
NC(=O)c1ncn([C@@H]2O[C@H](CO)[C@@H](O)[C@H]2O)n1,Influenza B virus,B/HK/5/72,MDCK cells,cytopathic effect,EC50,-,9 µM
Nc1ccc(S(=O)(=O)O)c2cc(S(=O)(=O)O)cc(O)c12,Influenza B virus,Singapore/222/79,MDCK,cytopathic effect,EC50,-,>200 µM
CC(N)C12CC3CC(CC(C3)C1)C2,Influenza B virus,B/HK/5/72,MDCK cells,cytopathic effect,EC50,-,>500 µM

Blank or dashed fields: not listed here. ECn: concentration that inhibits the pathogen or its effect by n%. Percent inhibition refers to the dose given; in toxicity tests it is the harm to the cells.